Pooled drug test results. Numbers come from NIAID ChemDB, via PubChem.

Shared fields: host cell toxicity; cell line: MT-4; endpoint: CC50

An empty or dashed field is not shown. CCn is the concentration with n% toxicity to the cells. Rows are shuffled and stem from different studies.

smiles	method	value
S=C(NCCc1ccccc1)Nc1ccc(Cl)cn1		51 µM
Cc1c(C(C)C)s/c(=N\S(=O)(=O)c2cc(F)ccc2C#N)n1C	MTT	>25 µM
Cc1cn([C@H]2C=C[C@@H](CO)O2)c(=O)[nH]c1=O	MTT	>100 µM
Cc1cn([C@@H]2O[C@H](CO[Si](C)(C)C(C)(C)C)C3(OS(=O)(=O)C=C3N)[C@H]2O[Si](C)(C)C(C)(C)C)c(=O)n(C)c1=O	MTT	>66.2 µM
CC(C)=CCc1cc(C2CC(=O)c3c(cc(O)c(CC=C(C)C)c3O)O2)ccc1O		14 µg/mL
Cc1c(C(C)(C)C)s/c(=N\S(=O)(=O)c2ccc(O)cc2)n1C	MTT	>25 µM
O=C(/C=C/c1ccc(OC2OC(CO)C(O)C(O)C2OC2OCC(O)(CO)C2O)cc1)c1ccc(O)cc1O		>100 µg/mL
O=C1CCC(c2ccccc2)C(=O)N1CCCCN1CCN(Cc2ccccc2)CC1	MTT	>100 µM
CC(C)=CCN1Cc2cc(Cl)cc3[nH]c(=S)n(c23)C[C@@H]1C	MTT	>31.1 µM
C#Cc1ccc(Nc2nccc(Oc3c(C)cc(-c4cn(CC(=O)Nc5ccc(F)cc5)nn4)cc3C)n2)cc1	MTT	1.41 µM
Cc1cn([C@H]2C[C@H](N=[N+]=[N-])[C@@H](CO)O2)c(=O)[nH]c1=O	MTT	270 µg/mL
Nc1nc2c(ncn2CCOCP(=O)(O)O)c(=O)[nH]1		11 µM
CCOC(=O)[C@H](C)NP(=O)(OC[C@@H]1O[C@H](n2cc(C)c(=O)[nH]c2=O)C[C@H]1N=[N+]=[N-])OC[C@H]1O[C@@H](n2cc(C)c(=O)[nH]c2=O)C[C@@H]1N=[N+]=[N-]		>100 µM
C[C@H](NC(=O)[C@H](Cc1ccc2ccccc2c1)NC(=O)[C@H](CCCN=C(N)N)NC(=O)[C@@H](N)CCCN=C(N)N)C(=O)N[C@@H](Cc1ccc(O)cc1)C(=O)O	MTT	>100 µM
Cc1c(C(C)(C)C)s/c(=N\S(=O)(=O)c2cccc([N+](=O)[O-])c2)n1C	MTT	>25 µM
O=c1[nH]cnc2c1ncn2[C@H]1CC[C@@H](CO)O1		>250 µM
NOCc1cccc(Cl)c1Cl		44.8 µg/mL
c1cc2ccc3ccc(CN4CCCNCCNCCCNCC4)nc3c2nc1CN1CCCNCCNCCCNCC1	MTT	>200 µg/mL
Nc1ccn([C@H]2CC[C@@H](CO)O2)c(=O)n1	MTT	120 µM
c1cc(CN2CCCNCCNCCCNCC2)cc(-c2cccc(CN3CCCNCCNCCCNCC3)c2)c1	MTT	>200 µg/mL
COc1ccccc1S(=O)(=O)/N=c1\sc(C(C)(C)C)c(C)n1C	MTT	>25 µM
COC(=O)[C@@H]1CCCN1P(=O)(OC[C@H]1O[C@@H](n2cc(C)c(=O)[nH]c2=O)CC1N=[N+]=[N-])Oc1ccccc1	MTT	165.6 µM
O=c1[nH]cnc2c1ncn2[C@H]1CC[C@@H](CO)O1		>500 µM
CCc1[nH]c(=S)[nH]c1Cc1cc(C)cc(C)c1	MTT	>100 µM
Cc1cn([C@@H]2O[C@H](CO[Si](C)(C)C(C)(C)C)[C@@]3(OS(=O)(=O)C=C3N)[C@H]2O[Si](C)(C)C(C)(C)C)c(=O)[nH]c1=O		12 µM
c1cc(CCNCCN2CCCCC2)ccc1CCNCCN1CCCCC1		50 µg/mL
CC(C)=CCc1c(O)ccc(C2COc3cc(O)c(CC=C(C)C)c(O)c3C2=O)c1O		46 µg/mL
CCc1csc(NC(=S)NCCc2c(F)cccc2F)n1		304 µM
Cc1cc(C)cc(Cc2c(C(C)C)nc(SCC(N)=O)n2Cc2ccncc2)c1	MTT	64.04 µM
CCc1csc(NC(=S)NCCc2ccccn2)n1		103 µM
C[C@@H]1O[C@@H](Oc2c(-c3ccc(O)cc3)oc3c4c(cc(O)c3c2=O)OC(C)(C)C=C4)[C@H](O)[C@H](O)[C@H]1O		>500 µg/mL
CCCCNP(=O)(OC[C@@H]1O[C@H](n2cc(C)c(=O)[nH]c2=O)C[C@H]1N=[N+]=[N-])OC[C@H]1O[C@@H](n2cc(C)c(=O)[nH]c2=O)C[C@@H]1N=[N+]=[N-]		>100 µM
O=C(NCCc1ccc(O)c(O)c1)c1cc2cc(O)c(O)cc2[nH]1	MTT	133 µM
CCc1c(C(c2ccccc2)c2ccccc2)nc(SCC(=O)c2ccc(OC)cc2)[nH]c1=O	MTT	>366 µM
Cc1cn([C@H]2C[C@H](N=[N+]=[N-])[C@@H](CO)O2)c(=O)[nH]c1=O		1.8 µg/mL
O=c1[nH]cnc2c1ncn2[C@H]1CC[C@@H](CO)O1	MTT	>1000 µM
O=C1CCC(c2ccccc2)C(=O)N1CCCCN1CCN(c2ccccc2O)CC1	MTT	>100 µM
O=C(NCCCCCCNC(=O)c1cc2cc(O)c(O)cc2[nH]1)c1cc2cc(O)c(O)cc2[nH]1	MTT	171 µM
O=C(O)CSc1ccc2[nH]c3ccccc3c(=O)c2c1		>400 µg/mL
Fc1cccc(F)c1CCNC(=S)Nc1ccccn1		341 µM
C#Cc1ccc(Nc2nccc(Oc3c(C)cc(-c4cn(CC(=O)OC)nn4)cc3C)n2)cc1	MTT	10.35 µM
NCCCC[C@@H](NC(=O)[C@H](Cc1ccc2ccccc2c1)NC(=O)[C@H](CCCN=C(N)N)NC(=O)[C@@H](N)CCCN=C(N)N)C(=O)N1CCC[C@H]1C(=O)N[C@@H](CCCN=C(N)N)C(=O)O	MTT	>100 µM
C#Cc1ccc(Nc2nccc(Oc3c(C)cc(-c4cn(-c5ccc(C(=O)O)cc5)nn4)cc3C)n2)cc1	MTT	33.17 µM
COC1=C(N)C(=O)c2nc(-c3nc(C(N)=O)c(C)c(-c4ccc(OC)c(OC)c4O)c3N)ccc2C1=O		0.1 µg/mL
Cc1cn([C@@H]2O[C@H](CO[Si](C)(C)C(C)(C)C)[C@@]3(OS(=O)(=O)C=C3N)[C@H]2O[Si](C)(C)C(C)(C)C)c(=O)n(CC(=O)N[C@@H](CCC(=O)O)C(=O)O)c1=O		>250 µM
C=C(/C=C/P(=O)(O)O)CCn1cnc2c(=O)[nH]c(N)nc21	MTT	>1000 µM
C#Cc1ccc(Nc2nccc(Oc3c(C)cc(-c4cn(CC(=O)Nc5ccc(S(C)(=O)=O)cc5)nn4)cc3C)n2)cc1	MTT	6.36 µM
Cc1ccnc2c1NC(=O)c1cccnc1N2C1CC1	MTT	676 µM
NOCc1c(F)cccc1Cl		62.3 µg/mL
Nc1ncc2ncn(CCOCP(=O)(O)O)c2n1		>1250 µM
C#Cc1ccc(Nc2nccc(Oc3c(C)cc(-c4cn(CCc5ccccc5)nn4)cc3C)n2)cc1	MTT	5.69 µM
O=C1CCC(c2ccccc2)C(=O)N1CCCCN1CCN(c2ccc(F)cc2)CC1	MTT	54 µM
Cc1cn([C@H]2C[C@H](N=[N+]=[N-])[C@@H](CO)O2)c(=O)[nH]c1=O	MTT	7.485 µM
O=C(O)c1oc2cc(O)cc(O)c2c(=O)c1Oc1ccc(OCc2ccccc2)cc1OCc1ccccc1		>25 µg/mL
NC(N)=NCCC[C@H](NC(=O)[C@@H]1CCCN1C(=O)[C@@H](Cc1ccc(O)cc1)NC(=O)[C@H](Cc1ccc2ccccc2c1)NC(=O)[C@H](CCCN=C(N)N)NC(=O)[C@@H](N)CCCN=C(N)N)C(=O)O	MTT	>100 µM
Cc1cn([C@H]2C[C@H](N=[N+]=[N-])[C@@H](COC(=O)NCCSC(=O)OC[C@@H]3CC[C@H](n4cnc5c(=O)[nH]cnc54)O3)O2)c(=O)[nH]c1=O	MTT	>100 µM
CCOCn1c(SCC(N)=O)nc(CC)c1Cc1cc(C)cc(C)c1	MTT	>100 µM
C#Cc1ccc(Nc2nccc(Oc3c(C)cc(-c4cn(Cc5ccccc5[N+](=O)[O-])nn4)cc3C)n2)cc1	MTT	7.22 µM
COC(=O)c1ccc(Cl)cc1S(=O)(=O)/N=c1\sc(C(C)(C)C)c(C)n1C	MTT	>25 µM
C#Cc1ccc(Nc2nccc(Oc3c(C)cc(-c4cn(Cc5ccc(S(N)(=O)=O)cc5)nn4)cc3C)n2)cc1	MTT	81.64 µM
CCc1c(Sc2cc(C)cc(C)c2)n(COCCO)c(=S)[nH]c1=O		277 µM
Nc1nc(N)c2ncn(C[C@@H](CO)OCP(=O)(O)O)c2n1		90 µM
O=c1[nH]cnc2c1ncn2[C@H]1CC[C@@H](CO)O1	MTT	>100 µM
CCOCn1c(Cc2ccccc2)c(C(C)C)c(=O)[nH]c1=O	MTT	>100 µM
Nc1ccn([C@H]2CC[C@@H](CO)O2)c(=O)n1	MTT	47.3 µM
O=C(O)c1cc2cc(O)c(O)cc2[nH]1	MTT	75 µM
Cc1cn([C@H]2C=C[C@@H](CO)O2)c(=O)[nH]c1=O	MTT	≥100 µM
O=C1CCC(c2ccccc2)C(=O)N1CCCN1CCN(c2ncccn2)CC1	MTT	>100 µM
CC(C)c1nc(SCC(N)=O)n(Cc2ccncc2)c1Cc1ccccc1	MTT	>100 µM
N=c1ncn([C@H]2CC[C@@H](CO)O2)c2nc[nH]c12		>500 µM
Nc1nc2c(ncn2CC(CO)OCP(=O)(O)O)c(=O)[nH]1		25 µM
Cc1c(C(C)C)s/c(=N\S(=O)(=O)c2cc(Cl)ccc2C#N)n1C	MTT	>25 µM
COc1cccc(CCNC(=S)Nc2nccs2)c1		34 µM

6 of the rows above, restated:

smiles,method,value
Cc1ccnc2c1NC(=O)c1cccnc1N2C1CC1,MTT,676 µM
O=C1CCC(c2ccccc2)C(=O)N1CCCCN1CCN(c2ccc(F)cc2)CC1,MTT,54 µM
CCc1csc(NC(=S)NCCc2c(F)cccc2F)n1,,304 µM
CCc1c(Sc2cc(C)cc(C)c2)n(COCCO)c(=S)[nH]c1=O,,277 µM
O=c1[nH]cnc2c1ncn2[C@H]1CC[C@@H](CO)O1,,>500 µM
Cc1cn([C@H]2C[C@H](N=[N+]=[N-])[C@@H](CO)O2)c(=O)[nH]c1=O,MTT,270 µg/mL